Results of unrelated studies side by side (data: NIAID ChemDB).

All rows: growth or infection tests; species: HIV-1; endpoint: EC50

Two numbers with a dash give a range or band.

smiles | strain or isolate | changes | read by | setting | value
Nc1nc2c(ncn2[C@H]2C=C[C@@H](OCCO)C2)c(=O)[nH]1 |  |  |  |  | 14 µg/mL
Cc1cn(C2CC(N=[N+]=[N-])C(CO)O2)c(=O)n(/C=C/C(=O)/C=C(\O)C2=NN=[N+](Cc3ccc(F)cc3)C2)c1=O | NL4-3 |  |  |  | 0.16 µM
COc1ccc(Cn2cc(CSc3nc(Cc4c(Cl)cccc4Cl)c(C)c(=O)[nH]3)nn2)cc1 | RES056 |  | MTT |  | >28.98 µM
CC[C@H](C)[C@H](N)C(=O)O.[Na+] | NL4-3 |  | luciferase |  | 0.1 µM
O=C(O)C(=O)CC(=O)c1cccn1CCCc1ccccc1 |  |  |  |  | 15 µM
CCc1c(Sc2ccccn2)n(COCc2ccccc2)c(=O)[nH]c1=O |  |  |  |  | 0.02 µM
Cc1ccc(C(=O)Nc2ccc(S(=O)(=O)O)c3cc(S(=O)(=O)O)cc(S(=O)(=O)O)c23)cc1NC(=O)c1cccc(NC(=O)Nc2cccc(C(=O)Nc3cc(C(=O)Nc4ccc(S(=O)(=O)O)c5cc(S(=O)(=O)O)cc(S(=O)(=O)O)c45)ccc3C)c2)c1 | LAV |  | RT activity |  | 250 µM
Cc1cc(C)c(S(=O)(=O)/C=C/n2c(=O)c(C)cn(C3CC(N=[N+]=[N-])C(CO)O3)c2=O)c(C)c1 | NL4-3 |  |  |  | 0.014 µM
Cc1ccnc2c1NC(=O)c1cccnc1N2C1CC1 | HXB2 |  | recombinant virus assay |  | 0.022 µM
C[C@H](Cn1cnc2c(=O)[nH]c(N)nc21)OCP(=O)(O)O |  |  |  |  | 1.5 µM
CN1[C@@H](c2cccc(Br)c2)c2ccccc2S1(=O)=O |  |  |  |  | 0.086 µM
O=c1[nH]c(SCc2cn(Cc3ccc(F)cc3)nn2)nc(Cc2c(Cl)cccc2Cl)c1I | IIIB |  | MTT |  | >92.05 µM
Nc1c(S(=O)(=O)[O-])cc2c3c(cc(S(=O)(=O)[O-])cc13)C(=O)N(NC(=O)N/N=C\c1cccc(C=O)c1)C2=O.[Na+].[Na+] | LAV |  | RT activity |  | >1760 µM
Cc1c(C#N)cc(C(F)F)cc1Oc1c(C(F)(F)C(F)F)ncn(Cc2cc(F)c[nH]c2=O)c1=O |  | Y181C | RT activity / fluorescence |  | 0.0158 µM
Cc1ccnc2c1NC(=O)c1cccnc1N2C1CC1 | IIIB |  | MTT |  | 0.312 µM
CO[P@](=O)(c1cc(C)cc(/C=C/C#N)c1)c1c(C(N)=O)[nH]c2ccc(Cl)cc12 | BH10 | Y181C |  |  | <0.004 µM
CC[C@H](C)[C@H](NNC(=O)C1COC2CC[C@H](NC(=O)CCCCCCCCCCCCCCCC(=O)O)C(=O)N21)C(=O)N[C@@H](Cc1ccccc1)C(N)=O |  |  | MTT |  | >125 µg/mL
CC(C)(C)NC(=O)[C@@H]1CN(C(C)(C)c2cc3cnccc3o2)CCN1C[C@@H](O)C[C@@H](Cc1ccccc1)C(=O)N[C@H]1c2ccccc2OC[C@H]1O | 4X (PR M46I L63P V82T I84V) Recombinant | PR-M46I L63P V82T I84V |  |  | <0.031 µM
CC(C)COC(=O)N1CC(=O)Nc2ccccc21 | IIIB |  | ELISA |  | >100 µM
Cc1ccccc1Cn1cc(CSc2nc(Cc3cccc4ccccc34)c(C)c(=O)[nH]2)nn1 | IIIB |  | MTT |  | >24.01 µM
Cc1cn(C2CC(N=[N+]=[N-])C(CO)O2)c(=O)n(/C=C/C(=O)/C=C(\O)c2nnnn2Cc2ccc(F)cc2)c1=O | NL4-3 |  |  |  | 0.24 µM
Cc1ccnc2c1NC(=O)c1cccnc1N2C1CC1 | IIIB S0561945 |  |  |  | >15 µM
CC1(Cn2cnc3cnc(Cl)nc32)CC1CO |  |  |  |  | >100 µg/mL
CN1[C@@H](c2cccc(Cl)c2)c2ccccc2S1(=O)=O |  |  |  |  | 0.074 µM
Cc1cn([C@H]2C[C@H](N=[N+]=[N-])[C@@H](CO)O2)c(=O)[nH]c1=O | RF |  | cytopathic effect / XTT |  | 0.037 µM
COC(=O)P(=S)(OC)OC[C@@H]1CC[C@H](n2cnc3c(=O)[nH]cnc32)O1 |  |  | p24 |  | 0.09–23 µM
COC(=O)CCCCn1c(=O)c(C)cn([C@@H]2O[C@H](CO[Si](C)(C)C(C)(C)C)C3(OS(=O)(=O)C=C3N)[C@H]2O[Si](C)(C)C(C)(C)C)c1=O |  |  |  |  | 0.03–0.76 µM
CC(C)C[C@H](N)C(=O)O.[Na+] | IIIB |  | luciferase |  | 0.76 µM
Cc1ccnc2c1NC(=O)c1cccnc1N2C1CC1 |  |  | RT activity | pseudotyped | 0.01 µM
Cc1cn([C@@H]2O[C@H](CO[Si](C)(C)C(C)(C)C)C3(OS(=O)(=O)C=C3N)[C@H]2O[Si](C)(C)C(C)(C)C)c(=O)n(CCO)c1=O |  |  |  |  | 0.03–0.76 µM
O=c1[nH]c(SCc2cn(Cc3ccc(F)cc3)nn2)nc(Cc2cccc3ccccc23)c1I | IIIB |  | MTT |  | >81.81 µM
Oc1ccc(/C=C/c2cc(O)cc3c2[C@@H](c2cc(O)cc(O)c2)[C@H](c2ccc(O)c(O)c2)O3)cc1 | IIIB |  |  |  | 10 µg/mL
COC(=O)/C=C/n1c(=O)c(C)cn([C@@H]2O[C@H](CO[Si](C)(C)C(C)(C)C)C3(OS(=O)(=O)C=C3N)[C@H]2O[Si](C)(C)C(C)(C)C)c1=O |  |  |  |  | 0.03–0.76 µM
c1ccc(CNCc2ccc(CN3CCCNCCNCCCNCC3)cc2)nc1 | HE |  |  |  | 0.008 µg/mL
Cc1c(O)cccc1C(=O)N[C@@H](CSc1ccccc1)[C@H](O)CN1C[C@H]2CCCC[C@H]2C[C@H]1C(=O)NC(C)(C)C | pNL4-3 luciferase reporter |  |  |  | 0.0081 µM
C[C@H](Cn1cnc2c(N)ncnc21)OCP(=O)(O)O |  |  | p24 / ELISA |  | 1.3 µM
CC(=O)c1ccc(C)cc1NC(C(N)=O)c1c(Cl)cccc1Cl |  |  |  |  | 0.01 µM
C=CCOC(=O)N[C@H]1CCCN(CC(=O)Nc2ccc(N)cc2)C1=O |  |  | MTT |  | >125 µg/mL
Nc1c(S(=O)(=O)O)cc2c3c(cc(S(=O)(=O)O)cc13)C(=O)N(NC(=O)N/N=C\c1ccc(-c3ccc(C=O)cc3)cc1)C2=O | LAV |  | RT activity |  | 180 µM
COP(=S)(OC[C@@H]1CC[C@H](n2cnc3c(=O)[nH]cnc32)O1)C(=O)O |  |  | p24 |  | 1–10 µM
O=S(=O)(c1ccccc1)c1ccccc1 | UC781-RS(RT-Y181C | RT-Y181C |  |  | >114 µM
CCOC(=O)/C=C\n1c(=O)c(C)cn([C@@H]2O[C@H](CO[Si](C)(C)C(C)(C)C)C3(OS(=O)(=O)C=C3N)[C@H]2O[Si](C)(C)C(C)(C)C)c1=O |  |  |  |  | 0.03–0.76 µM
CC(C)=CCOc1cc(NC(=S)c2ccsc2C)ccc1Cl | UC781-RS(RT-Y181C | RT-Y181C |  |  | 0.3 µM
Cc1cn([C@H]2C[C@H](N=[N+]=[N-])[C@@H](CO)O2)c(=O)[nH]c1=O | CC10 Clinical isolates |  | p24 |  | 0.01 µM
CC1(Cn2cnc3c(N)ncnc32)CC1CO |  |  |  |  | 42.8 µg/mL
Cc1cn([C@@H]2O[C@H](CO[Si](C)(C)C(C)(C)C)C3(OS(=O)(=O)C=C3N)[C@H]2O[Si](C)(C)C(C)(C)C)c(=O)n(CCc2ccccc2)c1=O |  |  |  |  | 0.03–0.76 µM
CCN1c2ncc(NCc3ccc(OCP(=O)(O)O)cc3)cc2C(=O)N(C)c2cccnc21 |  |  |  |  | >5 µM
Cc1cn([C@H]2C[C@H](N=[N+]=[N-])[C@@H](CO)O2)c(=O)[nH]c1=O | NL4-3 | DS-resistant |  |  | 0.004 µM
COc1ccc(Cn2cc(CSc3nc(Cc4c(Cl)cccc4Cl)c(I)c(=O)[nH]3)nn2)cc1 | IIIB |  | MTT |  | >75.91 µM
C=O.Cc1cn(C2CC(N(N)N)C(COP(N)(=O)O)O2)c(=O)[nH]c1=O |  |  |  |  | 0.191 µM
Cc1cn([C@@H]2O[C@H](CO[Si](C)(C)C(C)(C)C)C3(OS(=O)(=O)C=C3N)[C@H]2O[Si](C)(C)C(C)(C)C)c(=O)n(CCC[N+](C)(C)C)c1=O.[I-] |  |  |  |  | 0.03–0.76 µM
CCOP(=O)(CO[C@@H]1C=C[C@H](n2cnc3c(N)ncnc32)C12CC2)OCC | WILD TYPE |  |  |  | 80 µM
CN(C)c1ccc(/C=C2\SC(N=Nc3c(O)[nH]c4ccccc34)=NC2=O)cc1 | NL4-3 |  |  |  | 2.6 µM
Cc1cc(Nc2cc(C(C)O)cc(C(C)O)c2)nc(N)[n+]1C | ADA |  |  |  | >1 µM
CCCCC[C@H](O)/C=C/C1=C(CCCCCCC(=O)O)C(=O)CC1 |  |  | syncytia |  | >40 µM
Cc1cc(C)cc(C(=O)c2cc(Cl)ccc2OCCN2CCC(=O)NC2=O)c1 |  |  | RT activity | pseudotyped | 0.08 µM
c1cc(CN2CCCNCCNCCCNCC2)ccc1CN1CCCNCCNCCCNCC1 | NL4-3 | DS-resistant |  |  | 0.02 µM
Cc1cc2c(C(C)C)c(C)c(O)c(C=O)c2c(O)c1-c1c(C)cc2c(C(C)C)c(O)c(O)c(C=O)c2c1O | NL4-3 |  | luciferase |  | 0.64 µM
CC(C)CN(C[C@@H](O)[C@H](Cc1ccccc1)NC(=O)[C@H](CC(N)=O)NC(=O)c1ccc2ccccc2n1)C(=O)NC(C)(C)C | BMS-186318-resistant (PR A71T V82A) | PR-A71T V82A |  |  | 0.16 µM
CC(C)OC(=O)[C@H](C)N[P@@](=O)(CO[C@H](C)Cn1cnc2c(N)ncnc21)Oc1ccccc1 |  |  |  |  | 0.06 µM
N#Cc1ccccc1Cn1cc(CSc2nc(Cc3cccc4ccccc34)c(I)c(=O)[nH]2)nn1 | IIIB |  | MTT |  | >75.93 µM
Cc1ccc(S(=O)(=O)CCn2c(=O)c(C)cn(C3CC(N=[N+]=[N-])C(CO)O3)c2=O)cc1 | NL4-3 |  |  |  | 0.14 µM
CCOP(=O)(CO[C@@H]1[C@@H](O)[C@@H](O)[C@H](n2cnc3c(N)ncnc32)C12CC2)OCC | WILD TYPE |  |  |  | 88.9 µM
N#Cc1ccc(Cn2cc(CSc3nc(Cc4c(Cl)cccc4Cl)cc(=O)[nH]3)nn2)cc1 | RES056 |  | MTT |  | >133 µM

7 of the rows above, restated:

{"smiles": "Cc1cn([C@@H]2O[C@H](CO[Si](C)(C)C(C)(C)C)C3(OS(=O)(=O)C=C3N)[C@H]2O[Si](C)(C)C(C)(C)C)c(=O)n(CCC[N+](C)(C)C)c1=O.[I-]", "value": "0.03–0.76 µM"}
{"smiles": "C=CCOC(=O)N[C@H]1CCCN(CC(=O)Nc2ccc(N)cc2)C1=O", "read by": "MTT", "value": ">125 µg/mL"}
{"smiles": "O=c1[nH]c(SCc2cn(Cc3ccc(F)cc3)nn2)nc(Cc2cccc3ccccc23)c1I", "strain or isolate": "IIIB", "read by": "MTT", "value": ">81.81 µM"}
{"smiles": "C=O.Cc1cn(C2CC(N(N)N)C(COP(N)(=O)O)O2)c(=O)[nH]c1=O", "value": "0.191 µM"}
{"smiles": "CN1[C@@H](c2cccc(Cl)c2)c2ccccc2S1(=O)=O", "value": "0.074 µM"}
{"smiles": "CC(C)OC(=O)[C@H](C)N[P@@](=O)(CO[C@H](C)Cn1cnc2c(N)ncnc21)Oc1ccccc1", "value": "0.06 µM"}
{"smiles": "CCc1c(Sc2ccccn2)n(COCc2ccccc2)c(=O)[nH]c1=O", "value": "0.02 µM"}

An empty or dashed field is not shown. ECn: concentration that inhibits the pathogen or its effect by n%. Rows are shuffled and stem from different studies.